Results of unrelated studies side by side (data: NIAID ChemDB).

Shared fields: growth or infection tests

ECn: concentration that inhibits the pathogen or its effect by n%. A number after MIC or MFC names an inhibition level or a share of isolates. Percent inhibition refers to the dose given; in toxicity tests it is the harm to the cells. Rows are shuffled and stem from different studies. An empty or dashed field is not shown. a–b is a range or a potency band. Fold resistance has wild type as its base. Zones are inhibition diameters on agar.

smiles,agent,strain or isolate,mutations,cells,method,conditions,measure,dose,result
CN[C@@H]1[C@H](O[C@H]2[C@H](O[C@H]3[C@H](O)[C@@H](O)[C@H](N=C(N)N)[C@@H](O)[C@@H]3N=C(N)N)O[C@@H](C)[C@]2(O)C=O)O[C@@H](CO)[C@H](O)[C@H]1O,Klebsiella pneumoniae,ESBL-75799,,,agar diffusion,,zone,250 µg/disc,22 mm
Cc1ccnc2c1NC(=O)c1cccnc1N2C1CC1,HIV-1,NNRTI-resistant (RT Y188C),RT-Y188C,MAGI,β-galactosidase,,EC50,,2.3 µM
OC[C@@H]1C[C@@H](O)[C@H](n2cnc3c(NC4CCCCCC4)ccnc32)O1,Maedi-visna virus,KV1772,,Sheep chondrocytes G81092,cytopathic effect,,EC50,,0.5 µM
Nc1nc2c(ncn2CCC(CO)CO)c(=O)[nH]1,Herpes simplex virus 1,KOS S2242-resistant,,HEL,cytopathic effect,,EC50,,0.11 µg/mL
CC[C@@H](C(C)C)[C@@H](O)[C@H](O)[C@@H](C)[C@H]1CC[C@H]2[C@@H]3CC(=O)[C@H]4C[C@@H](OC(C)=O)CC[C@]4(C)[C@H]3CC[C@]12C,Measles virus,MV/Brazil/001/91,,VERO,plaque count,,EC50,,40 µM
Nc1nc(Cl)nc2c1ncn2[C@@H]1O[C@H](CO)[C@@H](O)[C@H]1O,Maedi-visna virus,KV1772,,Sheep chondrocytes G81092,cytopathic effect,,EC50,,15 µM
COC(=O)[C@H](C)NP(=O)(OC[C@H]1C/C1=C/n1cnc2c(OC)nc(N)nc21)Oc1ccccc1,Mouse cytomegalovirus,,,MEF,plaque count,,EC50,,0.24 µM
CCn1cc(C(=O)O)c(=O)c2cc(F)c(N3CCNCC3)cc21,Vittaforma corneae,,,,,,MIC50,,24 µM
CC(C)[C@H](NC(=O)[C@H](CCCN=C(N)N)NC(=O)N[C@@H](Cc1ccccc1)C(=O)O)C(=O)N[C@H](C=O)CCCN=C(N)N,Cryptosporidium parvum,,,,,,inhibition,5 µg/mL,32.26%
Nc1ncnc2c1ncn2[C@@H]1C[C@@H](O)[C@H](CO)O1,Duck hepatitis B virus,,,PDH,,,EC50,,0.0009 µM
OC[C@H]1O[C@@H](n2cnc3c(NC4CCCCCC4)nc(Cl)nc32)CC1O,Maedi-visna virus,KV1772,,Sheep chondrocytes G81092,cytopathic effect,,EC50,,0.27 µM
O=c1[nH]c(=O)n([C@H]2C[C@H](O)[C@@H](CO)O2)cc1/C=C/Br,Epstein-Barr virus,,,P3HR-1,,,inhibition,100 µM,5%
NC(=O)c1ncn([C@H]2C=C[C@@H](CO)O2)n1,Punta Toro virus,,,,plaque count,,EC50,,28 µg/mL
OC[C@H]1O[C@@H](n2cnc3c(NC4CC4)cc(Cl)nc32)C[C@@H]1O,Maedi-visna virus,KV1772,,Sheep chondrocytes G81092,cytopathic effect,,EC50,,2.7 µM
Nc1ncnc2c1ncn2C[C@@H](CO)OCP(=O)(O)O,Epstein-Barr virus,,,P3HR-1,,,inhibition,1 µM,7%
NNC(=S)N/N=C/c1cn(CC2CCCCC2)c2ccccc12,Mycobacterium bovis BCG,1173P2,,,broth dilution,48 h,MIC100,,>500 µg/mL
C[C@@H](O)C1=C[C@@H](n2cnc3c(N)ncnc32)[C@H](O)[C@@H]1O,Measles virus,Toyoshima,,VERO,plaque count,,EC50,,0.25 µg/mL
CN1CCC2(C1)C1CC3CC(C1)CC2C3,Coxsackie virus,TYPE A21,,HeLa,,,inhibition,100 µM,40–70%
C#C[C@]1(CO)O[C@@H](n2cnc3c(N)nc(F)nc32)CC1O,HIV-2,ROD9,K65R Y115F Q151M M184V,MAGIC-5A,β-galactosidase / absorbance,,fold resistance,,13
O=C(O)c1cn(C2CC2)c2cc(N3CCNCC3)c(F)cc2c1=O,Vittaforma corneae,,,,,,MIC50,,66 µM
CC(C)CN(C[C@@H](O)[C@H](Cc1ccccc1)NC(=O)[C@H](CC(N)=O)NC(=O)c1ccc2ccccc2n1)C(=O)NC(C)(C)C,HIV-1,NL4-3,PR-L63P,MT-4,p24,,EC95,,0.2 µM
Nc1ncnc2c1ncn2CCOCP(=O)(O)O,Human herpesvirus 7,,,SupT1,syncytia,,EC50,,3.4 µM
Nc1ccn(C[C@@H](CO)OCP(=O)(O)O)c(=O)n1,Herpes simplex virus 1,KOS BVDU-resistant,,HEL,cytopathic effect,,EC50,,0.13 µg/mL
O=c1[nH]c(=O)n([C@H]2C[C@H](O)[C@@H](CO)O2)cc1/C=C/Br,Sindbis virus,,,BHK-21/C13,plaque count,,EC50,,>500 µM
C=C[C@@H]1C[C@]1(NC(=O)[C@@H]1C[C@@H](Oc2nccc3ccc(Br)cc23)CN1C(C)=O)C(=O)NS(=O)(=O)C1CC1,Hepatitis C virus,1b D168V,,,luciferase,,EC50,,>3 µM
CC(C)OC(=O)[C@H](C)N[P@](=O)(OC[C@H]1O[C@@](C#N)(c2ccc3c(N)ncnn23)[C@](C)(O)[C@@H]1OC(=O)C(C)C)Oc1ccccc1,Hepatitis C virus,1b Con1,D168V,1C,luciferase,,fold resistance,,0.61
CC[C@@]1(OC(=O)CN)C(=O)OCc2c1cc1n(c2=O)Cc2c-1nc1cc3c(cc1c2CCl)OCO3,Saccharomyces cerevisiae,JHY6-1C,,,,,MIC,,3.12 µg/mL
OC[C@@H]1CC[C@H](n2cnc3c(NC4CCCCCC4)ncnc32)O1,Maedi-visna virus,KV1772,,Sheep chondrocytes G81092,cytopathic effect,,EC50,,8.6 µM
CO[C@@H]1C[C@@H](C[C@H]2CC[C@H](C)[C@H](CC(O)CCC(C)/C=C(\C)C(=O)O)O2)OC2(O[C@](C)([C@H]3CC[C@@](C)([C@@H]4O[C@@H]([C@H]5O[C@@](O)(CO)[C@H](C)C[C@@H]5C)C[C@@H]4C)O3)C[C@H]2C)[C@@H]1C,Toxoplasma gondii,RH,,,uracil uptake / radiometric,,inhibition,0.1 µg/mL,0%
COc1c(N2C[C@@H]3C(N)[C@@H]3C2)c(F)cc2c(=O)c(C(=O)O)cn(-c3ccc(F)cc3F)c12,Toxoplasma gondii,RH,,MRC-5,,,EC50,,32 µM
CC[C@@H](C(C)C)[C@@H](O)[C@H](O)[C@@H](C)[C@H]1CC[C@H]2[C@@H]3CC(=O)[C@@]4(O)C[C@@H](Br)CC[C@]4(C)[C@H]3CC[C@]12C,Measles virus,MV/Brazil/001/91,,VERO,plaque count,,EC50,,13 µM
C1CC2(CN1)C1CC3CC(C1)CC2C3,Coxsackie virus,TYPE A21,,HeLa,,,inhibition,100 µM,<20%
C[C@@H]1CN(c2c(F)c(N)c3c(=O)c(C(=O)O)cn(C4CC4)c3c2F)C[C@H](C)N1,Streptococcus pneumoniae,1C1 (PARC mutation SER79TYR),,,,,MIC,,0.5 µg/mL
Clc1ccc(Cn2cc(/C=N/Nc3nncs3)c3ccccc32)cc1,Mycobacterium bovis BCG,1173P2,,,broth dilution,48 h,MIC100,,3.91 µg/mL
OC[C@H]1O[C@@H](n2cnc3c(NC4CC4)nc(Cl)nc32)C[C@@H]1O,Maedi-visna virus,KV1772,,Sheep chondrocytes G81092,cytopathic effect,,EC50,,0.15 µM
C#CC[C@@H](C(=O)N[C@H](/C=C/C(=O)OCC)C[C@@H]1CCNC1=O)n1cccc(NC(=O)c2cc(C)on2)c1=O,Rhinovirus,Serotype 68,,H1-HELA,cytopathic effect / XTT,,EC50,,0.076 µM
NNC(=S)N/N=C/c1cn(Cc2ccc(Cl)cc2)c2ccccc12,Mycobacterium bovis BCG,1173P2,,,broth dilution,48 h,MIC100,,>500 µg/mL
CC[C@@H](C(C)C)[C@H](O)[C@@H](O)[C@@H](C)[C@H]1CC[C@H]2[C@@H]3CC(=O)C4C[C@@H](F)CC[C@]4(C)[C@H]3CC[C@]12C,Measles virus,MV/Brazil/001/91,,VERO,plaque count,,EC50,,1 µM
COc1c(N2C[C@@H]3C(CN)[C@@H]3C2)c(F)cc2c(=O)c(C(=O)O)cn(C3CC3)c12,Toxoplasma gondii,RH,,MRC-5,,,EC50,,66 µM
[N-]=[N+]=N[C@]1(CO)O[C@@H](n2ccc(N)nc2=O)[C@H](O)[C@@H]1O,Hepatitis C virus,Con1,N142T,1C,luciferase,,fold resistance,,1.6
CCCCCCn1cc(/C=N/NC(=S)NN)c2ccccc21,Mycobacterium bovis BCG,1173P2,,,broth dilution,48 h,MIC100,,>500 µg/mL
Nc1ccn(C[C@H]2COP(=O)(O)CO2)c(=O)n1,Human herpesvirus 6,GS,,HSB-2,cytopathic effect,,EC50,,6.3 µM
Nc1ncc2c(ncn2COC(CO)CO)n1,Herpes simplex virus 1,KOS ACV-resistant,,HEL,cytopathic effect,,EC50,,0.11 µg/mL
O=C1N(Cc2ccc(CO)cc2)[C@H](Cc2ccccc2)[C@H](O)[C@@H](O)[C@@H](Cc2ccccc2)N1Cc1ccc(CO)cc1,HIV-1,NL4-3,PR-L10R M46I L63P 184V,MT-4,p24,,EC95,,3 µM
CC[C@@]1(O)C(=O)OCc2c1cc1n(c2=O)Cc2c-1nc1cc3c(cc1c2C)OCO3,Saccharomyces cerevisiae,Mutant ΔERG6,,,,,MIC,,>100 µg/mL
N=C(N)c1ncn([C@@H]2O[C@H](CO)[C@@H](O)[C@H]2O)n1,Influenza A virus (H1N1),A/NWS/33,,MDCK,virus yield,,inhibition,22 µg/mL,90%
NC(=O)c1ncn([C@@H]2O[C@H](CO)[C@@H](O)[C@H]2O)n1,Measles virus,Halonen,,CV-1,cytopathic effect,,EC50,,1 µg/mL
CC(C)N1CCC2(C1)C1CC3CC(C1)CC2C3,Coxsackie virus,TYPE A21,,HeLa,,,inhibition,100 µM,20–40%
Nc1nc2c(ncn2CCC(CO)CO)c(=O)[nH]1,Human herpesvirus 7,,,CD4+ T lymphocytes,syncytia,,EC50,,>250 µM
CC[C@@]1(O)C(=O)OCc2c1cc1n(c2=O)Cc2cc3c(CN(C)C)c(O)ccc3nc2-1,Saccharomyces cerevisiae,Mutant ΔERG6,,,,,MIC,,>1000 µg/mL
C[C@H]1C[C@@H](n2cnc3c(N)ncnc32)[C@H](O)[C@@H]1O,Tacaribe virus,,,VERO,cytopathic effect,,EC50,,23 µg/mL
Cc1cn([C@@H]2O[C@H](CO)[C@@H](O)[C@@H]2O)c(=O)[nH]c1=O,Herpes simplex virus 1,KOS GCV-resistant,,HEL,cytopathic effect,,EC50,,20 µg/mL
CC[C@@H](C(C)C)[C@H](O)[C@@H](O)[C@@H](C)[C@H]1CC[C@H]2[C@@H]3CC(=O)[C@@]4(O)C[C@@H](OC(C)=O)CC[C@]4(C)[C@H]3CC[C@]12C,Measles virus,MV/Brazil/001/91,,VERO,plaque count,,EC50,,23 µM
CO[C@@H]1[C@@H](OC(N)=O)[C@@H](O)[C@H](Oc2ccc3c(O)c(NC(=O)c4ccc(O)c(CC=C(C)C)c4)c(=O)oc3c2C)OC1(C)C,Vittaforma corneae,,,,,,MIC50,,>100 µM
CN1CCC2(C1)C1CC3CC(C1)CC2C3,Influenza A virus,A/Maryland/104/68,,,,,MIC,,0.1 µg/mL
COC(=O)[C@H](C)NP(=O)(OC[C@H]1C/C1=C/n1cnc2c(N)nc(N)nc21)Oc1ccccc1,Mouse cytomegalovirus,,,MEF,plaque count,,EC50,,3.2 µM
c1ccc([Se][Se]c2ccccc2)cc1,Candida dubliniensis,,,,broth dilution,,MIC,,2–8 µg/mL
CCCCCCCCCCN1[C@H](CN)[C@@H](O)[C@H](O)[C@H]1CO,Dengue virus,,,,,,EC50,,>50 µM
CCOC1c2cc(OC)c(OC)cc2-c2ccc3cc4c(cc3c2N1C)OCO4,Saccharomyces cerevisiae,JHY6-1C,,,,,MIC,,3.12 µg/mL
O=C(O)CP(=O)(O)O,Herpes simplex virus 1,KOS HPMPA-resistant,,HEL,cytopathic effect,,EC50,,11.9 µg/mL
CC[C@@]1(O)C(=O)OCc2c1cc1n(c2=O)Cc2cc3cc4c(cc3nc2-1)OCO4,Saccharomyces cerevisiae,JHY6-1C,,,,,MIC,,>100 µg/mL
Nc1nc2c(ncn2COC(CO)CO)c(=O)[nH]1,Herpes simplex virus 1,KOS ACV-resistant,,HEL,cytopathic effect,,EC50,,7.23 µg/mL
C=C1CCC2CC(C(=C)C)C2(C)CCC(C(=C)C(=O)O)CC1CC=C(C)C,Human rhinovirus,HRV2,,HeLa,,,EC50,,<0.1 µg/mL
COc1c(O)cc2oc(-c3ccccc3)cc(=O)c2c1O,Saccharomyces cerevisiae,,,,,,MIC,,250 µg/mL
COc1cc(C=O)cc(OC)c1,Aspergillus terreus,UAB673,,,agar,,MIC,,1000 µM
CC[C@@]1(O)C(=O)OCc2c1cc1n(c2=O)Cc2cc3c(N)cccc3nc2-1,Saccharomyces cerevisiae,JHY6-1C,,,,,MIC,,>100 µg/mL
Nc1ccn([C@@H]2C[C@@H](O)[C@H](CO)O2)c(=O)n1,Duck hepatitis B virus,,,PDH,,,EC50,,0.0007 µM

Repeating the final 7 entries:

smiles	agent	strain or isolate	mutations	cells	method	conditions	measure	dose	result
CC[C@@]1(O)C(=O)OCc2c1cc1n(c2=O)Cc2cc3cc4c(cc3nc2-1)OCO4	Saccharomyces cerevisiae	JHY6-1C					MIC		>100 µg/mL
Nc1nc2c(ncn2COC(CO)CO)c(=O)[nH]1	Herpes simplex virus 1	KOS ACV-resistant		HEL	cytopathic effect		EC50		7.23 µg/mL
C=C1CCC2CC(C(=C)C)C2(C)CCC(C(=C)C(=O)O)CC1CC=C(C)C	Human rhinovirus	HRV2		HeLa			EC50		<0.1 µg/mL
COc1c(O)cc2oc(-c3ccccc3)cc(=O)c2c1O	Saccharomyces cerevisiae						MIC		250 µg/mL
COc1cc(C=O)cc(OC)c1	Aspergillus terreus	UAB673			agar		MIC		1000 µM
CC[C@@]1(O)C(=O)OCc2c1cc1n(c2=O)Cc2cc3c(N)cccc3nc2-1	Saccharomyces cerevisiae	JHY6-1C					MIC		>100 µg/mL
Nc1ccn([C@@H]2C[C@@H](O)[C@H](CO)O2)c(=O)n1	Duck hepatitis B virus			PDH			EC50		0.0007 µM